# HIV-1 5' UTR: effect of mutations on RNA dimer formation

Values reported by Ye et al. 2022 (doi:10.1038/s41594-022-00746-2).

Sequence of the HIV-1 NL4-3 5' RNA, positions 1 to 437, as numbered in the source:
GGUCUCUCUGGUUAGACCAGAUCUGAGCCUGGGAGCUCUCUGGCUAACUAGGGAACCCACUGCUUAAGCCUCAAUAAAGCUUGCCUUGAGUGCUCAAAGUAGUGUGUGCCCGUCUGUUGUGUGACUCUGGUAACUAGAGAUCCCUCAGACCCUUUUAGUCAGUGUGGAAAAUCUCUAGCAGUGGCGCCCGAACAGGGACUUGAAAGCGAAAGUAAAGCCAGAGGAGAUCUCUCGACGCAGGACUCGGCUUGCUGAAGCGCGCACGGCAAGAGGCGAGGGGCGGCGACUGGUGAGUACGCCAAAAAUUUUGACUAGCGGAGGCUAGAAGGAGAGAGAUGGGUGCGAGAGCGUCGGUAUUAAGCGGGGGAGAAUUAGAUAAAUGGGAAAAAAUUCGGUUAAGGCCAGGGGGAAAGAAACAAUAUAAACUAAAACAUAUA

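Mutant RNA libraries with 1G, 2G or 3G starts, with or without cap, were folded at 37 °C for 30 min. Monomer and dimer bands were cut from native gels after folding in high salt (300 mM KCl, 5 mM MgCl2) or low salt (40 mM KCl, 0.1 mM MgCl2). Mutation frequencies in the two bands give Kdimer.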

Values are log2 Kdimer, the median over the changes at each position: higher means that changes there hinder dimer formation, below 0 that they favour it. Sample: 2G capped low-salt. One numbering serves 1G, 2G and 3G. A position is written with its base.

For A192 the result was 0.11.
For C193 the result was -0.29.
For A194 the result was 0.36.
For G195 the result was 0.38.
For G196 the result was 0.60.
For G197 the result was 0.51.
For A198 the result was -0.35.
For C199 the result was -0.08.
For U200 the result was 0.08.
For U201 the result was -0.09.
For G202 the result was -0.27.
For A203 the result was 0.75.
For A204 the result was -0.02.
For A205 the result was -0.06.
For G206 the result was -0.79.
For C207 the result was -0.56.
For G208 the result was -0.32.
For A209 the result was 0.82.
For A210 the result was -0.14.
For A211 the result was -0.49.
For G212 the result was -0.82.
For U213 the result was -0.45.
For A214 the result was 0.00.
For A215 the result was -0.27.
For A216 the result was -0.62.
For G217 the result was -1.19.
For C218 the result was -0.88.
For C219 the result was -0.30.
For A220 the result was -0.19.
For G221 the result was 0.08.
For A222 the result was 0.40.
For G223 the result was 0.45.
For G224 the result was -0.29.
For A225 the result was -0.21.
For G226 the result was -0.65.
For A227 the result was 1.12.
For U228 the result was 0.34.
For C229 the result was 0.25.
For U230 the result was 0.67.

The last 3 entries again:

U228 read 0.34.
C229 read 0.25.
U230 read 0.67.